Anti-infective test results gathered from many reports (values: NIAID ChemDB through PubChem).

All rows: target-level tests; organism: Hepatitis C virus; target: NS3/NS4A protease

a–b is a range or a potency band. An empty or dashed field is not shown. Neighbouring rows are from separate reports. ICn: concentration for n% inhibition. Inhibition is in % at the dose shown (toxicity tests: loss of growth or viability).

structure | strain or isolate | endpoint | dose | method | value
COc1ccc2c(O[C@@H]3C[C@@H](C(=O)NC4(C(=O)NS(=O)(=O)C5CC5)CCC45CC5)N(C(=O)[C@@H](NC(=O)OC(C)(C)C)C(C)(C)C)C3)cc(-c3ccccc3)nc2c1 | BMS | IC50 | - | - | <0.5 µM
CC(C)(C)[C@H](NC(=O)[C@@H](NS(=O)(=O)c1cnccn1)C1CCCCC1)C(=O)N1C[C@H]2[C@@H]([C@H]1C(=O)NC(CC1CC1)C(=O)C(N)=O)C2(C)C | - | Ki | - | - | 0.02 µM
CCC[C@H](NC(=O)[C@@H]1[C@@H](Cc2ccccc2)CCN1C(=O)[C@H](NC(=O)[C@H](NC(=O)c1cnccn1)C1CCCCC1)C(C)(C)C)C(=O)C(=O)NC1CC1 | Hepatitis C virus | Ki | - | - | 0.31 µM
C=CC1CC1(NC(=O)[C@@H]1C[C@@H](Oc2cc(-c3ccccc3)nc3cc(OC)ccc23)CN1C(=O)[C@@H](NC(=O)OC(C)(C)C)C(C)(C)C)C(=O)NS(=O)(=O)C1(C2=CCCCC2)CC1 | BMS | IC50 | - | - | 0.05–0.5 µM
C=CC1CC1(NC(=O)[C@@H]1C[C@@H](OC(=O)Nc2cc(C)ccc2-c2nccs2)CN1C(=O)[C@@H](NC(=O)OC(C)(C)C)C(C)(C)C)C(=O)NS(=O)(=O)C1CC1 | BMS/H77C/J416S | IC50 | - | - | <0.1 µM
C=C[C@@H]1C[C@]1(NC(=O)[C@@H]1C[C@@H](Oc2cc(-c3ccccc3)nc3cc(OC)ccc23)CN1C(=O)[C@@H](NC(=O)OC(C)(C)C)C(C)(C)C)C(=O)NS(=O)(=O)c1ccc(Br)cc1 | BMS | IC50 | - | - | <0.5 µM
CCCC(NC(=O)[C@@H]1C[C@@H](OC(=O)N2CCc3ccccc3C2)CN1C(=O)[C@H](NC(=O)[C@H](NC(=O)c1cnccn1)C(C)C)C(C)C)C(=O)C(=O)N[C@@H](C)C(=O)O | - | Ki | - | - | <0.2 µM
C=CC1CC1(NC(=O)[C@@H]1C[C@@H](OC(=O)Nc2cc(C(F)(F)F)ccc2N2CCCC2)CN1C(=O)[C@@H](NC(=O)OC(C)(C)C)C(C)(C)C)C(=O)NS(=O)(=O)C1CC1 | BMS/H77C/J416S | IC50 | - | - | <0.1 µM
C=C[C@@H]1C[C@]1(NC(=O)[C@@H]1C[C@@H](Oc2cc(-c3ccccc3)nc3cc(OC)ccc23)CN1C(=O)[C@@H](NC(=O)OC(C)(C)C)C(C)(C)C)C(=O)NS(=O)(=O)c1ccc(OC(F)(F)F)cc1 | BMS | IC50 | - | - | <0.5 µM
C=CC1CC1(NC(=O)[C@@H]1C[C@@H](OC(=O)Nc2ccccc2C(=O)c2ccccc2)CN1C(=O)[C@@H](NC(=O)OC(C)(C)C)C(C)(C)C)C(=O)NS(=O)(=O)C1CC1 | BMS/H77C/J416S | IC50 | - | - | <0.1 µM
C=CC1CC1(NC(=O)OC(C)(C)C)C(=O)N1C[C@H](Oc2cc(-c3ccccc3)nc3cc(OC)ccc23)C[C@H]1C(=O)N[C@]1(C(=O)NS(=O)(=O)C2CC2)C[C@H]1CC | BMS | IC50 | - | - | <0.5 µM
C=CC1CC1(NC(=O)[C@@H]1C[C@@H](OC(=O)NC2CCCCC2)CN1C(=O)[C@@H](NC(=O)OC(C)(C)C)C(C)(C)C)C(=O)NS(=O)(=O)C1CC1 | BMS/H77C/J416S | IC50 | - | - | <0.1 µM
C=C[C@@H]1C[C@]1(NC(=O)[C@@H]1C[C@@H](Oc2cc(-c3ccccc3)nc3cc(OC)ccc23)CN1C(=O)[C@@H](NC(=O)CC1C2CC1C2)C(C)(C)C)C(=O)NS(=O)(=O)C1CC1 | BMS | IC50 | - | - | <0.05 µM
CCC[C@H](NC(=O)[C@@H]1[C@@H](C2CCCCC2)CCN1C(=O)[C@H](NC(=O)[C@H](NC(=O)c1cnccn1)C1CCCCC1)C(C)(C)C)C(=O)C(=O)NC1CC1 | Hepatitis C virus | Ki | - | - | 0.1 µM
C=C[C@@H]1C[C@]1(NC(=O)[C@@H]1C[C@@H](Oc2cc(-c3ccccc3)nc3cc(OC)ccc23)CN1C(=O)[C@@H](NC(=O)OC(C)(C)C)C(C)(C)C)C(=O)NS(=O)(=O)c1cccc(Cl)c1 | BMS | IC50 | - | - | <0.05 µM
CCC(C=O)NC(=O)[C@@H]1C[C@@H](Oc2cccc3ccccc23)CN1C(=O)[C@H](NC(=O)[C@H](NC(=O)c1cnccn1)C(C)C)C(C)C | - | Ki | - | - | 4.1 µM
C=C[C@H]1C[C@@]1(NC(=O)[C@@H]1C[C@@H](Oc2cc(-c3ccccc3)nc3cc(OC)ccc23)CN1C(=O)[C@@H](NC(=O)OC(C)(C)C)C(C)(C)C)C(=O)NS(=O)(=O)C1(CCOCc2ccccc2)CC1 | BMS | IC50 | - | - | <0.05 µM
CCC[C@H](NC(=O)[C@@H]1[C@@H](CC)CCN1C(=O)[C@H](NC(=O)[C@H](NC(=O)c1cnccn1)C1CCCCC1)C(C)(C)C)C(=O)C(=O)NC1CC1 | Hepatitis C virus | Ki | - | - | 0.15 µM
C=CC1CC1(NC(=O)[C@@H]1C[C@@H](OC(=O)Nc2onc(C)c2C)CN1C(=O)[C@@H](NC(=O)OC(C)(C)C)C(C)(C)C)C(=O)NS(=O)(=O)C1CC1 | BMS/H77C/J416S | IC50 | - | - | 0.1–1 µM
C=CCOC(=O)CNC(=O)C(=O)C(CCC)NC(=O)[C@H]1C(C(=O)[C@@H](NC(=O)[C@@H](NC(=O)[C@H](CCC(=O)O)NC(=O)[C@H](CCC(=O)O)NC(C)=O)C(C)C)C(C)C)NC(=O)N1Cc1ccccc1 | - | Ki | - | - | 1 µM
O=C(Nc1cccc(Cl)c1Cl)c1c(O)cc(O)c([N+](=O)[O-])c1O | - | IC50 | - | HPLC | 10.1 µg/mL
C=CCOC(=O)CNC(=O)C(=O)C(CCC)NC(=O)[C@H]1C(C(=O)[C@@H](NC(=O)[C@@H](NC(=O)[C@H](CCC(=O)OC(C)(C)C)NC(=O)[C@H](CCC(=O)OC(C)(C)C)NC(C)=O)C(C)C)C(C)C)NC(=O)N1Cc1ccc(C)c(C)c1 | - | Ki | - | - | >100 µM
Cc1ccccc1NC(=O)c1c(O)cc(O)c([N+](=O)[O-])c1O | - | inhibition | 100 µg/mL | HPLC | 77.8%
C=CC1CC1(NC(=O)[C@@H]1C[C@@H](OC(=O)[n+]2cccc(C(C)=O)c2)CN1C(=O)[C@@H](NC(=O)OC(C)(C)C)C(C)(C)C)C(=O)NS(=O)(=O)C1CC1 | BMS/H77C/J416S | IC50 | - | - | 0.1–1 µM
C=C[C@H]1C[C@@]1(NC(=O)[C@@H]1C[C@@H](Oc2cc(-c3ccccc3)nc3cc(OC)ccc23)CN1C(=O)[C@@H](NC(=O)OC(C)(C)C)C(C)(C)C)C(=O)NS(=O)(=O)C1(CCOC)CC1 | BMS | IC50 | - | - | <0.05 µM
C=CC1CC1(NC(=O)[C@@H]1C[C@@H](OC(=O)NCc2ccccc2C)CN1C(=O)[C@@H](NC(=O)OC(C)(C)C)C(C)(C)C)C(=O)NS(=O)(=O)C1CC1 | BMS/H77C/J416S | IC50 | - | - | 0.1–1 µM
CCC[C@H](NC(=O)[C@@H]1[C@@H](C(CC)CC)CCN1C(=O)[C@H](NC(=O)[C@H](NC(=O)c1cnccn1)C1CCCCC1)C(C)(C)C)C(=O)C(=O)NC1CC1 | Hepatitis C virus | Ki | - | - | 0.33 µM
CC(=O)CC(NC(C)=O)C(=O)N[C@@H](CCC(=O)O)C(=O)NC(C(=O)N[C@@H](CCC(=O)O)C(=O)NC(CC1CCCCC1)C(=O)N[C@@H](CC(F)F)C(=O)O)C(c1ccccc1)c1ccccc1 | - | Ki | - | - | 0.021 µM
O=C(NCCc1ccccc1)c1c(O)cc(O)c([N+](=O)[O-])c1O | - | inhibition | 100 µg/mL | HPLC | 69.8%
C=CC1C[C@@]1(NC(=O)[C@@H]1C[C@@H](Oc2cc(-c3ccccc3)nc3cc(OC)ccc23)CN1C(=O)[C@@H](NC(=O)CCOC)C(C)(C)C)C(=O)NS(=O)(=O)C1(Cc2ccccc2)CC1 | BMS | IC50 | - | - | 0.05–0.5 µM
C=C[C@@H]1C[C@]1(NC(=O)[C@@H]1C[C@@H](Oc2cc(-c3ccccc3)nc3cc(OC)ccc23)CN1C(=O)[C@@H](NC(=O)C(=O)OC)C(C)(C)C)C(=O)NS(=O)(=O)C1CC1 | BMS | IC50 | - | - | <0.05 µM
C=CC1CC1(NC(=O)[C@@H]1C[C@@H](OC(=O)Nc2cc(C)ccc2Cl)CN1C(=O)[C@@H](NC(=O)OC(C)(C)C)C(C)(C)C)C(=O)NS(=O)(=O)C1CC1 | BMS/H77C/J416S | IC50 | - | - | <0.1 µM
C=CC1CC1(NC(=O)[C@@H]1C[C@@H](Oc2cc(-c3ccccc3)nc3cc(OC)ccc23)CN1C(=O)[C@@H](NC(=O)OC(C)(C)C)C(C)(C)C)C(=O)NS(=O)(=O)C1(C(=O)NCCC)CC1 | BMS | IC50 | - | - | <0.05 µM
O=C(Nc1ccc(Br)cc1)c1c(O)cc(O)c([N+](=O)[O-])c1O | - | inhibition | 100 µg/mL | HPLC | 94.1%
C=CCNC(=O)C(=O)C(CCC)NC(=O)[C@H]1C(C(=O)[C@@H](NC(=O)[C@@H](NC(=O)[C@H](CCC(=O)O)NC(=O)[C@H](CCC(=O)O)NC(C)=O)C(C)C)C(C)C)NC(=O)N1CC(=O)OCC | - | Ki | - | - | 4 µM